Taken from: PubChem BioAssay AID504761 (Drosophila RNAi Screening Center, 2011)
Screen: 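Fly genes whose silencing reduces dengue virus type 2 infection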 (primary screen). Cells: D.Mel-2 cells from Drosophila. Knock-down reagent: long dsRNA against Drosophila genes. Conditions: infection with dengue virus type 2; dose and infection time not stated. Measurement: 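Per well on two replicate plates, imaging gave the percent of cells positive for viral envelope protein, ranked by infection, and a nuclear count of cells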. Scale: infection score: higher = more virus-infected cells; cell count: higher = more cells in the well. Call rule: 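Low infection ranks in the two replicates (chance level up to 0.065) followed by a retest with a 1.5-fold or larger significant decrease, p below 0.05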. Meaning of the calls: active = confirmed: knock-down lowers infection; inactive = not picked or not confirmed.
In all, the deposit lists about 22,000 reagents; this is a random part of those that have a named target and a result. Over the whole deposit, 116 (0.52%) are marked active. 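Calls depend on retest data that are not deposited; infection was ranked per plate without normalising between plates; the unit of the infection score is not given.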 Raw values are not corrected between plates. A number with no mark means an inactive call. Names joined by + are all predicted targets of the reagent. Not stated in the record: the amount of reagent, the time to read-out.

The opening 2 records, to show the layout:
target,amplicon,"infection score, replicate 1","infection score, replicate 2","cell count, replicate 1","cell count, replicate 2"
CG9861,DRSC04576,10,24.6,6273,5661
CG9861,DRSC28876,15.6,24.2,5134,5278

Main list, repeating the preview:
target,amplicon,"infection score, replicate 1","infection score, replicate 2","cell count, replicate 1","cell count, replicate 2"
CG9861,DRSC04576,10,24.6,6273,5661
CG9861,DRSC28876,15.6,24.2,5134,5278
CG10154,DRSC09707,2.92,1.38,6654,6867
CG1113,DRSC12163,8.98,1.16,6078,6997
CG5493 + CG5327,DRSC06938,2.06,1.45,6024,6146
CG9447,DRSC05008,8.22,4.71,3323,1592
CG1789,DRSC18140,7.09,4.75,5854,6467
CG1789,DRSC28967,8.46,11.8,4931,5271
CG8303,DRSC07140,20.6,7.35,5989,6684
ru,DRSC08258,0.7,1.55,6303,6127
ru,DRSC28529,8.41,7.63,6014,4968
snRNA:U11,DRSC36526,0.98,6.78,5921,6567
Spec2 (retired record),DRSC12258,4.33,11.8,5816,5960
Spec2 (retired record),DRSC22886,2.77,0.57,5524,6791
nrm,DRSC11599,1.77,1.76,6117,6121
nrm,DRSC11897,11.2,10.1,6958,6492
Nepl12,DRSC16411,1.22,4.43,5833,6325
CG31709,DRSC01081,3.8,1.75,6447,1945
CG31709,DRSC27731,4.33,7.49,6612,6731
Prp19,DRSC07434,10.3,8.83,3333,1574
Prp19,DRSC23905,2.93,1.08,3989,3990
CG31156,DRSC15753,4.04,7.88,6382,6953
CG31156,DRSC15755,5.77,,3311,316
peg,DRSC15216,5.66,1.64,5022,7128
peg,DRSC26737,8.51,4.12,6701,6359
Polr1C,DRSC02719,4.21,12.8,4966,4705
dare + CG30033,DRSC22908,1.52,19.7,7088,6334
Prat2,DRSC09692,7.67,7.02,6534,6556
Cngl,DRSC20318,7.19,12.3,5772,5853
Cngl,DRSC23577,2.19,1.34,5467,5882
CG31008,DRSC14028,0.74,,6348,6357
CG31008,DRSC27234,3.9,9.02,6256,6183
Ttc19,DRSC02474,,8.71,622,7360
CG1172,DRSC12182,9.76,7.6,6873,6991
CG1172,DRSC21954,1.44,3.42,6533,6260
CG1172,DRSC23672,3.84,11,6045,5943
CG43322,DRSC02280,6.01,2.64,2646,721
CG43322,DRSC27089,8.69,1.82,6412,6808
Atg3,DRSC10736,8.22,11.4,6010,6463
Atg3,DRSC21758,10.2,1.53,6936,6601
Atg3,DRSC29687,17.4,15.1,1719,5856
CG10341,DRSC02040,16.7,14.1,5807,6042
dpr3,DRSC00395,4.58,10.8,6764,5956
dpr3,DRSC00396,5.89,6.85,5758,6375
CG10576,DRSC09745,9.44,15.7,4809,4708
Gdh,DRSC16679,4.16,2.85,5939,7163
Gdh,DRSC28603,,,441,381
Syt12,DRSC19359,4.45,4.72,6515,6355
CG14246,DRSC14741,4.57,3.4,6175,6232
CG14246,DRSC27766,9.66,21.8,6131,3276
ebi,DRSC00816,6.44,1.86,5562,5542
CG13029,DRSC09909,4.7,3.57,5997,6502
CG32532,DRSC19556,4.28,4.51,6381,5582
CG32532,DRSC19557,1.95,4.27,6146,5529
CG32532,DRSC21370,1.32,4.05,5984,6489
EloB,DRSC16663,6.14,6.22,6287,6573
Fis1,DRSC07772,0.33,2.41,6089,6311
EMC10,DRSC11850,3.59,7.49,5854,6264
CG34354,DRSC15645,7.32,1.67,6015,6811
CG34354,DRSC23054,2.01,1.14,6126,6683
CG12307,DRSC02159,5.94,10.7,5941,6222
Lip2,DRSC02577,3.65,6.42,6380,6353
Lip2,DRSC02578,2.64,0.21,6552,6313
Pgi,DRSC07507,3.71,3.51,6504,6927
Iru,DRSC14457,9.5,13.1,5529,5823
CG6000,DRSC15938,3.49,8.37,6339,1410
Apt1,DRSC10348,2.54,1.77,6216,6493
CG16978,DRSC02553,6.71,4.55,5900,6571
sunz,DRSC12559,25.4,4.83,5636,1533
CG17930,DRSC15292,8.95,15.1,7249,6640
CG17930,DRSC28230,16.6,10.6,6083,5365
CG33330 (retired record),DRSC13053,7.82,10.6,4743,3922
CG33330 (retired record),DRSC15495,6.4,6.89,6454,6952
CG33330 (retired record),DRSC27452,10.6,5.98,6632,6333
